Compound potency records, mixed from different reports. Data source: NIAID ChemDB in PubChem.

Shared fields: tests in culture; species: Candida tropicalis

MIC50, MIC90 and the like: level of inhibition, or share of isolates inhibited. An empty or dashed field is not shown. Lines come from different laboratories, so protocols vary. ECn: concentration that inhibits the pathogen or its effect by n%.

SMILES | endpoint | setting | strain or isolate | method | cell line | value
O=C(N/N=C/c1ccc([N+](=O)[O-])cc1)c1ccc(CNc2nc3ccccc3[nH]2)cc1 | MIC |  |  | broth dilution |  | 25 µg/mL
O=C(OC1CCN(CC(O)(Cn2cncn2)c2ccc(F)cc2F)CC1)C(F)(F)F | MIC80 |  |  | broth dilution |  | 2.304 µM
CCC(C)n1ncn(-c2ccc(N3CCN(c4ccc(OC[C@H]5CO[C@](Cn6cncn6)(c6ccc(Cl)cc6Cl)O5)cc4)CC3)cc2)c1=O | MIC50 |  |  | broth dilution |  | 1 µg/mL
CC(C)CC(=O)C(=O)O | MFC100 |  | ATCC 750 | broth dilution |  | >72000 µg/mL
C[C@@H]1CC(=O)N(c2ccccc2)C1=O | MIC |  | CCC 131-2000 | broth dilution / turbidity |  | 62.5 µg/mL
O=C(/C=C/c1cccc(Br)c1)OC1CCN(CC(O)(Cn2cncn2)c2ccc(F)cc2F)CC1 | MIC80 |  |  | broth dilution |  | 0.458 µM
C[C@@H]1CC(=O)N(CCCCc2ccccc2)C1=O | MIC |  | CCC 131-2000 | broth dilution / turbidity |  | 31.3 µg/mL
O=c1[nH][nH]c2c1C(c1ccc(Cl)cc1)CC(c1ccc3ccccc3c1)=C2 | MIC |  |  |  |  | 12.5 µg/mL
C[C@@H]1C(=O)N(CCCc2ccccc2)C(=O)[C@@H]1C | MIC |  | CCC 131-2000 | broth dilution / turbidity |  | 62.5 µg/mL
Fc1ccc(C(Cn2ccnc2)NCc2cccc3ccccc23)cc1 | MIC |  | CBS 94 CA 44 CA 31 |  |  | 32.2 µg/mL
O=c1[nH][nH]c2c1C(c1ccc([N+](=O)[O-])cc1)CC(c1ccc3ccccc3c1)=C2 | MIC |  |  |  |  | 100 µg/mL
O=C(CCn1ccnc1)c1cccc(C(O)c2ccc(Cl)c(Cl)c2)c1 | MIC |  | RTCC 1095 | broth dilution |  | 32 µg/mL
CC(=O)Nc1ccc(C(=O)N/N=C/c2cccc(O)c2)cc1 | EC50 |  | ATCC 750 | broth dilution |  | 17 µM
CC(=O)OC1C(=O)N2CCCS(=O)(=O)C12c1ccccc1 | MIC |  | CP/K92 |  |  | 9.7 µM
O/N=C\c1ccccc1O | MIC100 |  |  |  |  | 3600 µM
C=CCc1ccc(OC)c(OC)c1 | MIC90 |  | 3056 | turbidity |  | 340 µg/mL
Cc1ccc(/C=C/C(=O)OC2CCN(CC(O)(Cn3cncn3)c3ccc(F)cc3F)CC2)cc1 | MIC80 |  |  | broth dilution |  | 0.032 µM
CC(C)(O)c1cn(-c2ccc(Cl)cc2)nn1 | MIC |  | URM 933 | broth dilution |  | 128 µg/mL
CC(=O)O[C@@H]1C(=O)N(c2ccc(C(=O)O)cc2)[C@H]1c1ccccc1 | MIC |  | CP/K92 |  |  | 308 µM
O/N=C\c1cccs1 | MIC |  |  |  |  | 3930 µM
O=C(O/N=C(\CCn1ccnc1)c1ccccc1)c1cccc(Cl)c1 | MIC80 |  |  | agar diffusion |  | 0.7069 µg/mL
COc1cccc(-c2cc3cccnc3[nH]2)c1 | MIC100 |  | ATCC 201380 |  |  | 31.3 µg/mL
CC(C)CC1NC(=O)CC(CCCCCCCCC(C)O)OC(=O)C(CC(C)C)NC(=O)C(CC(C)C)NC(=O)C(CC(C)C)NC(=O)C(C(C)C)NC(=O)C(CC(=O)O)NC(=O)C(CC(C)C)NC1=O | MIC |  | MTCC 1406 | absorbance |  | 2 µg/mL
Clc1ccc(C(Cn2ccnc2)NCc2ccc(-c3ccccc3)cc2)c(Cl)c1 | MIC |  | CBS 94 CA 44 CA 29 |  |  | 2.8 µg/mL
C[C@@H](c1ncncc1F)[C@](O)(Cn1cncn1)c1ccc(F)cc1F | MIC50 |  |  | broth dilution |  | >4 µg/mL
Nc1[nH]c(=O)ncc1F | MIC50 |  | 11 isolates |  |  | 0.5 µg/mL
C[C@@H]1CC(=O)N(CCc2ccccc2)C1=O | MIC |  | CCC 131-2000 | broth dilution / turbidity |  | 62.5 µg/mL
Clc1ccc(C(Cn2ccnc2)OCc2csc3c(Cl)cccc23)c(Cl)c1 | MIC90 | 48 h | 65 isolates | visual reading |  | 4 µg/mL
c1ccc(C(Cn2ccnc2)NCc2cccc3ccccc23)cc1 | EC50 |  | CBS 94 CA 44 CA 14 |  | VERO | 12 µg/mL
O=C(O/N=C(\CCn1ccnc1)c1ccccc1)c1ccccc1Cl | MIC80 |  |  | agar diffusion |  | 0.3535 µg/mL
CC(=O)Nc1ccc(C(=O)N/N=C/c2ccc(N(C)C)cc2)cc1 | EC50 |  | ATCC 750 | broth dilution |  | 770 µM
Cc1ccc(/C(CCn2ccnc2)=N\O)cc1 | MIC80 |  |  | agar diffusion |  | 0.5456 µg/mL
C[C@@H](c1ncncc1F)[C@](O)(Cn1cncn1)c1ccc(F)cc1F | MIC90 |  | 38 isolates |  |  | 0.25 µg/mL
CC(=O)N1CCN(c2ccc(OC[C@H]3CO[C@](Cn4ccnc4)(c4ccc(Cl)cc4Cl)O3)cc2)CC1 | MIC90 |  | 10 isolates |  |  | 0.4 µg/mL
CCCCCCCCCCCCCCCCn1cc[n+](C)c1 | MIC |  | 17A | broth dilution |  | 0.014 µg/mL
O=C(O/N=C(\CCn1ccnc1)c1ccccc1)c1ccccc1 | MIC80 |  |  | agar diffusion |  | 0.7838 µg/mL
CCCCCCCCCCCCCCCC(=O)NC(CCCCN)C(=O)NC(CCCCN)C(N)=O | MIC |  | 4851 | broth dilution |  | 2 µg/mL
COc1ccc(C2CC(c3ccc4ccccc4c3)=Cc3[nH][nH]c(=O)c32)cc1 | MIC |  |  |  |  | 100 µg/mL
CC(C)CC(O)C(=O)O | EC50 |  | ATCC 750 | broth dilution |  | 18000 µg/mL
C[C@H]1[C@H](O)[C@@H](C)/C=C/C=C/C=C/C=C/C=C/C=C/C=C/[C@H](O[C@@H]2O[C@H](C)[C@@H](O)[C@H](N)[C@@H]2O)C[C@@H]2O[C@](O)(C[C@@H](O)C[C@@H](O)CC[C@H](O)[C@@H](O)C[C@@H](O)CC(=O)O[C@H]1C)C[C@H](O)[C@H]2C(=O)O | MIC100 |  |  | broth dilution |  | <0.3 µg/mL
O=C(/C=C/c1ccccc1F)OC1CCN(CC(O)(Cn2cncn2)c2ccc(F)cc2F)CC1 | MIC80 |  |  | broth dilution |  | 0.129 µM
O=C(N/N=C/c1ccc(Br)cc1)c1ccc(CNc2nc3ccccc3[nH]2)cc1 | MIC |  |  | broth dilution |  | 50 µg/mL
O/N=C\c1ccc(O)cc1 | MIC100 |  |  | broth dilution |  | >7290 µM
COC(=O)c1cc(O)c(O)c2oc3cc(OC)cc(O)c3c(=O)c12 | MIC |  | ATCC 750 | broth dilution |  | 31.25 µg/mL
Cc1ccc(C(O)c2cccc(C(O)CCn3ccnc3)c2)cc1 | MIC |  | RTCC 1095 | broth dilution |  | >64 µg/mL
C[C@@H]1CC(=O)N(Cc2ccccc2)C1=O | MIC |  | CCC 131-2000 | broth dilution / turbidity |  | 31.3 µg/mL
O=C(CCn1ccnc1)c1ccc2ccccc2c1 | MIC |  | RTCC 1095 | broth dilution |  | 8 µg/mL
CC(=O)OC1C(=O)N2CCCS(=O)C12c1ccccc1 | MIC |  | CP/K92 |  |  | 20.47 µM
O=[N+]([O-])c1cccc(/C=N\O)c1 | MIC |  |  |  |  | 3010 µM
O=C(/C=C/c1ccccc1Br)OC1CCN(CC(O)(Cn2cncn2)c2ccc(F)cc2F)CC1 | MIC80 |  |  | broth dilution |  | 0.458 µM
C[Si](C)(C)C#Cc1cnc2[nH]c(-c3ccccc3)cc2c1 | MIC100 |  | ATCC 201380 |  |  | 31.3 µg/mL
O=[N+]([O-])c1ccc(/C=N\O)cc1 | MIC100 |  |  |  |  | 3010 µM
OC(CNCCCOc1ccccc1)(Cn1cncn1)c1ccc(F)cc1F | EC80 |  |  |  |  | <0.125 µg/mL
O=C(CCn1ccnc1)c1ccc(Br)cc1 | MIC |  | RTCC 1095 | broth dilution |  | >64 µg/mL
O=C(/C=C/c1ccc(Br)cc1)OC1CCN(CC(O)(Cn2cncn2)c2ccc(F)cc2F)CC1 | MIC80 |  |  | broth dilution |  | 0.458 µM
C[C@@H](c1ncncc1F)[C@](O)(Cn1cncn1)c1ccc(F)cc1F | MIC80 |  | 107 |  |  | 0.03 µg/mL
O/N=C\c1ccc(F)cc1 | MIC |  |  |  |  | 3600 µM
CCC(C)CC(C)CCCCCCCCC(=O)N[C@H]1C[C@@H](O)[C@H](NCCN)NC(=O)[C@@H]2[C@@H](O)CCN2C(=O)[C@H]([C@H](O)CCN)NC(=O)[C@H]([C@H](O)[C@@H](O)c2ccc(O)cc2)NC(=O)[C@@H]2C[C@@H](O)CN2C(=O)[C@H]([C@@H](C)O)NC1=O | MIC |  | 8662 | broth dilution |  | 2 µg/mL
O=C(O)c1ccc(/C=N/NC(=O)c2ccc(CNc3nc4ccccc4[nH]3)cc2)cc1 | MIC |  |  | broth dilution |  | 25 µg/mL
c1ccc(-c2ccc(CNC(Cn3ccnc3)c3ccccc3)cc2)cc1 | MIC |  | CBS 94 CA 44 CA 27 |  |  | 1.3 µg/mL
Cc1cnc2[nH]c(-c3ccccc3)cc2c1 | MIC100 |  | ATCC 201380 |  |  | 31.3 µg/mL
CC1CC2=C(O1)c1ccccc1C(=O)C2=O | MIC |  | Clinical isolate | broth dilution |  | 10.1 µg/mL
COc1ccc(-c2cc3cccnc3[nH]2)cc1 | MIC100 |  | ATCC 201380 |  |  | 31.3 µg/mL
Nc1ncccc1-c1cc(Cc2ccc(COc3ccccn3)cc2)no1 | MIC |  | 8685 | broth dilution |  | 0.06 µg/mL
Cc1ccc(/C=N/NC(=O)c2ccc(CNc3nc4ccccc4[nH]3)cc2)cc1 | MIC |  |  | broth dilution |  | 50 µg/mL
CCOc1ccc2nc3cc(N=C4NC(=O)/C(=C\c5ccc([N+](=O)[O-])cc5)S4)ccc3c(N)c2c1 | MFC |  | ATCC 8302 | broth dilution |  | 1000 µg/mL
O=C(O/N=C(\CCn1ccnc1)c1ccccc1)c1ccc(Cl)cc1 | MIC80 |  |  | agar diffusion |  | 0.1767 µg/mL

For reference, 5 entries again:

SMILES,endpoint,setting,strain or isolate,method,cell line,value
COC(=O)c1cc(O)c(O)c2oc3cc(OC)cc(O)c3c(=O)c12,MIC,,ATCC 750,broth dilution,,31.25 µg/mL
O=C(O/N=C(\CCn1ccnc1)c1ccccc1)c1ccc(Cl)cc1,MIC80,,,agar diffusion,,0.1767 µg/mL
COc1ccc(C2CC(c3ccc4ccccc4c3)=Cc3[nH][nH]c(=O)c32)cc1,MIC,,,,,100 µg/mL
CC(C)(O)c1cn(-c2ccc(Cl)cc2)nn1,MIC,,URM 933,broth dilution,,128 µg/mL
CC(=O)N1CCN(c2ccc(OC[C@H]3CO[C@](Cn4ccnc4)(c4ccc(Cl)cc4Cl)O3)cc2)CC1,MIC90,,10 isolates,,,0.4 µg/mL